Anti-infective test results gathered from many reports (values: NIAID ChemDB through PubChem).

All rows: whole-cell or culture tests; species: Human cytomegalovirus

ECn: concentration that inhibits the pathogen or its effect by n%. An empty or dashed field is not shown. Two numbers with a dash give a range or band. Lines come from different laboratories, so protocols vary.

structure,strain or isolate,read-out,read by,cell line,result
OC[C@@H]1O[C@H](n2c(NC3CCC3)nc3cc(Cl)c(Cl)cc32)C[C@H]1O,AD169,EC50,hybridisation,MRC-5,0.37 µM
Nc1nc(NC2CC2)c2ncn(C=C3CC3CO)c2n1,TOWNE,EC50,cytopathic effect,HFF,2 µM
Nc1nc2c(ncn2OC(/C=C/P(=O)(O)O)CO)c(=O)[nH]1,AD169,EC50,plaque count,MRC-5,>300 µM
O=C(NCCc1c[nH]c2ccccc12)C1=Cc2ccncc2CC1,AD169,EC50,plaque count,MRC-5,1.5 µM
O=C(NCc1ccc(Cl)cc1)c1cn2c(CO)cc3cc(CN4CCOCC4)cc(c1=O)c32,-,EC50,-,-,0.21 µM
O=c1[nH]c(=S)n([C@@H]2O[C@H](CO)[C@@H](O)[C@@H]2O)cc1I,AD169,EC50,plaque count,MRC-5,>259 µM
C=C1COc2c(N3CCN(c4nc5ccccc5s4)CC3)c(F)cc3c(=O)c(C(=O)O)cn1c23,AD169,EC50,-,-,0.016 µg/mL
O=C1c2ccc(O)cc2C(=O)c2ccc(O)cc21,AD169,EC50,plaque count,MRC-5,>13.3 µM
CC1=C(C)[C@](CO)(c2ccccc2)C[C@H]1n1cnc2c(N)ncnc21,AD169,EC50,cytopathic effect,HEL 299,>100 µg/mL
CC1(Cn2cnc3cnc(Cl)nc32)CC1CO,-,EC50,-,-,>100 µg/mL
CC#Cc1cn([C@@H]2O[C@H](COP(=O)(O)Oc3c(C)cccc3C)[C@@H](O)[C@@H]2O)c(=O)[nH]c1=O,AD169,EC50,plaque count,MRC-5,>10 µM
O[C@@H]1[C@H](O)[C@H](O)CO[C@H]1n1c(Br)nc2cc(Cl)c(Cl)cc21,AD169,EC50,-,MRC-5,0.7 µM
CCC#Cc1ccc2c(c1)c(=O)c(C(=O)NCc1ccc(Cl)cc1)nn2C,-,EC50,-,-,<20 µM
OC[C@@H]1O[C@H](n2cnc3cc(Cl)c(Cl)cc32)C[C@H]1O,AD169,EC50,hybridisation,MRC-5,41 µM
N#Cc1cn([C@H]2C=C[C@@H](CO)O2)c2ncnc(N)c12,-,EC90,virus yield,HFF,>100 µM
Nc1nc2c(ncn2CC/C=C\P(=O)(O)O)c(=O)[nH]1,AD169,EC50,plaque count,MRC-5,>300 µM
O=C(NCc1ccc(Cl)cc1)c1n[nH]c2ccccc2c1=O,-,EC50,-,-,2.7 µM
CC#Cc1cn([C@@H]2O[C@H](COP(=O)(NCCC)Oc3ccccc3)[C@@H](O)[C@@H]2O)c(=O)[nH]c1=O,AD169,EC50,plaque count,MRC-5,>100 µM
O=c1[nH]c(=S)n([C@H]2C[C@H](O)[C@@H](CO)O2)cc1I,AD169,EC50,plaque count,MRC-5,>271 µM
Cc1ccc(S(=O)(=O)NC(N)=NCCC[C@H](NC(=O)OCc2cc(C)ccc2C)C(=O)N[C@H](C(=O)NC(/C=[N+](/C)[O-])CC(C)C)C(C)C)cc1,-,EC50,-,-,0.007 µM
Cn1cnc2nc(NCCO)nc(NCc3ccccc3)c21,TOWNE,EC50,plaque count,HFF,>100 µM
Cc1cn([C@@H]2O[C@H](CO)[C@@H](O)[C@@H]2O)c(=S)[nH]c1=O,AD169,EC50,plaque count,MRC-5,>365 µM
Nc1ncnc2c1ncn2CC/C=C\P(=O)(O)O,AD169,EC50,plaque count,MRC-5,>300 µM
CC#Cc1cn([C@@H]2O[C@H](CO)[C@@H](O)[C@@H]2O)c(=O)[nH]c1=O,AD169,EC50,plaque count,MRC-5,>100 µM
O=C1c2ccccc2C(=O)c2c1ccc(O)c2O,AD169,EC50,plaque count,MRC-5,24.1 µM
CC1(Cn2cnc3c(N)ncnc32)CC1CO,-,EC50,-,-,72.06 µg/mL
CCCCNc1nc2cc(Cl)c(Cl)cc2n1[C@H]1C[C@@H](CO)[C@H](O)[C@@H]1O,-,EC50,-,MRC-5,1.1 µM
O=C1c2ccc(O)c(O)c2C(=O)c2c(O)ccc(O)c21,Ganciclovir-resistant,EC50,plaque count,MRC-5,1.5 µM
C=C(/C=C/P(=O)(O)O)Cn1cnc2c(=O)[nH]c(N)nc21,AD169,EC50,plaque count,MRC-5,>300 µM
Nc1ncnc2c1c(Br)cn2COCCO,TOWNE,EC50,plaque count,HFF,3.9 µM
CC1=C(C)C(CO)(CO)C[C@H]1n1ccc(N)nc1=O,AD169,EC50,cytopathic effect,HEL 299,>100 µg/mL
Cc1cc(=O)c2c(O)c3c(O)cc(O)c4c5c(O)cc(O)c6c(O)c7c(=O)cc(C)c8c1c2c(c34)c(c65)c78,Ganciclovir-resistant,EC50,plaque count,MRC-5,3.8 µM
NC(=S)c1cn([C@@H]2O[C@H](CO)C[C@H]2O)c2ncnc(N)c12,-,EC90,virus yield,HFF,3 µM
C[C@H](Cn1cnc2c(NC3CC3)ncnc21)OCP(=O)(O)O,AD169,EC50,-,-,0.2 µg/mL
Nc1ncnc2c1ncn2OCCOCP(=O)(O)O,AD169,EC50,plaque count,MRC-5,>300 µM
O=c1ccn([C@H]2C[C@H](O)[C@@H](CO)O2)c(=S)[nH]1,AD169,EC50,plaque count,MRC-5,>412 µM
COc1nc2c(cc1CCCO)c(=O)c(C(=O)NCc1ccc(Cl)cc1)cn2C,-,EC50,-,-,0.46 µM
O=c1[nH]c(=O)n([C@H]2C[C@H](O)[C@@H](CO)O2)cc1F,AD169,EC50,plaque count,MRC-5,>362 µM
Nc1nc2c(ncn2COC(CO)CO)c(=O)[nH]1,TOWNE,EC50,plaque count,HFF,7.4 µM
CC#Cc1cn([C@@H]2O[C@H](COP(=O)(O)Oc3ccc(Cl)cc3)[C@@H](O)[C@@H]2O)c(=O)[nH]c1=O,AD169,EC50,plaque count,MRC-5,>10 µM
N#Cc1c(N)n(Cc2ccc(Br)cc2)c2ncnc(N)c12,TOWNE,EC50,plaque count,HFF,0.17 µM
Nc1nc(N)c2ncn(CC/C=C/P(=O)(O)O)c2n1,AD169,EC50,plaque count,MRC-5,>300 µM
CC(C)Oc1ccccc1CNC(=O)Nc1ccc2cnccc2n1,-,EC50,-,-,0.01–0.1 µg/mL

A second listing of 6 rows from above:

structure	strain or isolate	read-out	read by	cell line	result
Nc1nc2c(ncn2CC/C=C\P(=O)(O)O)c(=O)[nH]1	AD169	EC50	plaque count	MRC-5	>300 µM
CC#Cc1cn([C@@H]2O[C@H](COP(=O)(NCCC)Oc3ccccc3)[C@@H](O)[C@@H]2O)c(=O)[nH]c1=O	AD169	EC50	plaque count	MRC-5	>100 µM
CCC#Cc1ccc2c(c1)c(=O)c(C(=O)NCc1ccc(Cl)cc1)nn2C	-	EC50	-	-	<20 µM
Nc1ncnc2c1ncn2CC/C=C\P(=O)(O)O	AD169	EC50	plaque count	MRC-5	>300 µM
Cc1cn([C@@H]2O[C@H](CO)[C@@H](O)[C@@H]2O)c(=S)[nH]c1=O	AD169	EC50	plaque count	MRC-5	>365 µM
O=c1[nH]c(=S)n([C@@H]2O[C@H](CO)[C@@H](O)[C@@H]2O)cc1I	AD169	EC50	plaque count	MRC-5	>259 µM